Legend:
Assay in all cases: cell-based or functional assay
[1] = biological target: HIV-1 Env of isolate MG RM-A-001 (subtype A) (HIV-1)
[2] = biological target: HIV-1 Env of isolate MG RM-A-002 (subtype A) (HIV-1)
[3] = biological target: HIV-1 Env of isolate MG RM-A-003 (subtype A) (HIV-1)
[4] = biological target: HIV-1 Env of isolate MG RM-A-004 (subtype A) (HIV-1)
[5] = biological target: HIV-1 Env of isolate MG RM-A-005 (subtype A) (HIV-1)
[6] = biological target: HIV-1 Env of isolate MG RM-A-006 (subtype A) (HIV-1)
[7] = biological target: HIV-1 Env of isolate MG RM-A-007 (subtype A) (HIV-1)
[8] = biological target: HIV-1 Env of isolate MG RM-A-008 (subtype A) (HIV-1)
[9] = biological target: HIV-1 Env of isolate MG RM-A-009 (subtype A) (HIV-1)
[10] = biological target: HIV-1 Env of isolate MG RM-A-010 (subtype A) (HIV-1)
[11] = biological target: HIV-1 Env of isolate MG RM-A-011 (subtype A) (HIV-1)
[12] = biological target: HIV-1 Env of isolate MG RM-A-012 (subtype A) (HIV-1)
[13] = biological target: HIV-1 Env of isolate MG RM-A-013 (subtype A) (HIV-1)
[14] = biological target: HIV-1 Env of isolate MG RM-A-014 (subtype A) (HIV-1)
[15] = biological target: HIV-1 Env of isolate MG RM-AG-001 (subtype AG) (HIV-1)
[16] = biological target: HIV-1 Env of isolate MG RM-AG-002 (subtype AG) (HIV-1)
[17] = biological target: HIV-1 Env of isolate MG RM-AG-003 (subtype AG) (HIV-1)
[18] = biological target: HIV-1 Env of isolate MG RM-AG-005 (subtype AG) (HIV-1)
[19] = biological target: HIV-1 Env of isolate MG RM-AG-006 (subtype AG) (HIV-1)
[20] = biological target: HIV-1 Env of isolate MG RM-AG-008 (subtype AG) (HIV-1)
[21] = biological target: HIV-1 Env of isolate MG RM-AG-009 (subtype AG) (HIV-1)
[22] = biological target: HIV-1 Env of isolate MG RM-AG-011 (subtype AG) (HIV-1)
[23] = biological target: HIV-1 Env of isolate MG RM-AG-012 (subtype AG) (HIV-1)
[24] = biological target: HIV-1 Env of isolate MG RM-AG-013 (subtype AG) (HIV-1)
[25] = biological target: HIV-1 Env of isolate MG RM-C-001 (HIV-1)
[26] = biological target: HIV-1 Env of isolate MG RM-C-002 (HIV-1)
[27] = biological target: HIV-1 Env of isolate MG RM-C-004 (HIV-1)
[28] = biological target: HIV-1 Env of isolate MG RM-C-005 (HIV-1)
[29] = biological target: HIV-1 Env of isolate MG RM-C-006 (HIV-1)
[30] = biological target: HIV-1 Env of isolate MG RM-C-007 (HIV-1)
[31] = biological target: HIV-1 Env of isolate MG RM-C-008 (HIV-1)
[32] = biological target: HIV-1 Env of isolate MG RM-C-009 (HIV-1)
[33] = biological target: HIV-1 Env of isolate MG RM-C-010 (HIV-1)
[34] = biological target: HIV-1 Env of isolate MG RM-C-012 (HIV-1)
[35] = biological target: HIV-1 Env of isolate MG RM-C-013 (HIV-1)
[36] = biological target: HIV-1 Env of isolate MG RM-C-014 (HIV-1)
[37] = biological target: HIV-1 Env of isolate MG RM-C-015 (HIV-1)
[38] = biological target: HIV-1 Env of isolate MG RM-C-017 (HIV-1)

| Binder | IC50, pseudovirus neutralization [1] [µg/mL] | IC50, pseudovirus neutralization [2] [µg/mL] | IC50, pseudovirus neutralization [3] [µg/mL] | IC50, pseudovirus neutralization [4] [µg/mL] | IC50, pseudovirus neutralization [5] [µg/mL] | IC50, pseudovirus neutralization [6] [µg/mL] | IC50, pseudovirus neutralization [7] [µg/mL] | IC50, pseudovirus neutralization [8] [µg/mL] | IC50, pseudovirus neutralization [9] [µg/mL] | IC50, pseudovirus neutralization [10] [µg/mL] | IC50, pseudovirus neutralization [11] [µg/mL] | IC50, pseudovirus neutralization [12] [µg/mL] | IC50, pseudovirus neutralization [13] [µg/mL] | IC50, pseudovirus neutralization [14] [µg/mL] | IC50, pseudovirus neutralization [15] [µg/mL] | IC50, pseudovirus neutralization [16] [µg/mL] | IC50, pseudovirus neutralization [17] [µg/mL] | IC50, pseudovirus neutralization [22] [µg/mL] | IC50, pseudovirus neutralization [23] [µg/mL] | IC50, pseudovirus neutralization [24] [µg/mL] | also measured |
| --- | --- | --- | --- | --- | --- | --- | --- | --- | --- | --- | --- | --- | --- | --- | --- | --- | --- | --- | --- | --- | --- |
| PGT-141 (4964_G22; 4993_K13) (antibody, V domains shown) VH: QVQLVQSGPEVKKPGSSVKVSCKASGNTFSKYDVHWVRQATGQGLEWVGWMSHEGDKTESAQRFKGRVTFTRDTSASTAYMELRGLTSDDTAIYYCTRGSKHRLRDYVLYDDYGLINYQEWNDYLEFLDVWGHGTAVTVSS VL: DTVVTQSPLSLPVTPGEAASMSCSSTQSLRHSNGANYLAWYQHKPGQSPRLLIRLGSQRASGVPDRFSGSGSGTHFTLKISRVEAEDAAIYYCMQGLNRPWTFGKGTKLEIK | 0.209 | 0.217 | 7.96 | 0.007 | 11.1 | > 50 | > 50 | > 50 | 0.029 | 0.022 | > 50 | > 50 | 9.86 | 0.628 | 18 | 0.049 | > 50 | 0.118 | > 50 | > 50 | IC50, pseudovirus neutralization [18]: 0.497 µg/mL; IC50, pseudovirus neutralization [19]: > 50 µg/mL; IC50, pseudovirus neutralization [20]: 19.2 µg/mL; IC50, pseudovirus neutralization [21]: > 50 µg/mL |
| PGT-143 (4980_N08) (antibody, V domains shown) VH: QVQLEQSGAEVKKPGSSVKVSCKASGNTFSKYDVHWVRQATGQGLEWVGWMSHEGDKTESAQRFKGRVTFTRDTSASTAYMELRGLTSDDTAIYYCTRGSKHRLRDYVLYDDYGLINYQEWNDYLEFLDVWGHGTAVTVSS VL: DTVVTQSPLSLPVTPGEAASMSCTSTQSLRHSNGANYLAWYQHKPGQSPRLLIRLGSQRASGVPDRFSGSGSGTHFTLKISRVEPEDAAIYYCMQGLNRPWTFGKGTKLEIK | 0.274 | 0.016 | 11.2 | 0.007 | 7.48 | > 50 | > 50 | > 50 | 0.05 | 0.019 | > 50 | > 50 | 9.24 | 1.07 | 18.9 | 0.076 | > 50 | 0.156 | > 50 | > 50 | IC50, pseudovirus neutralization [18]: 1.11 µg/mL; IC50, pseudovirus neutralization [19]: > 50 µg/mL; IC50, pseudovirus neutralization [20]: 34 µg/mL; IC50, pseudovirus neutralization [21]: > 50 µg/mL |
| PGT-142 (4995_E20) (antibody, V domains shown) VH: QVQLVQSGPEVKKPGSSVKVSCKASGNTFSKYDVHWVRQATGQGLEWVGWISHERDKTESAQRFKGRVTFTRDTSATTAYMELRGLTSDDTAIYYCTRGSKHRLRDYVLYDDYGLINYQEWNDYLEFLDVWGHGTAVTVSS VL: DTVVTQSPLSLPVTPGEAASMSCSSTQSLRHSNGANYLAWYQHKPGQSPRLLIRLGSQRASGVPDRFSGSGSGTHFTLKISRVEAEDAAIYYCMQGLNRPWTFGKGTKLEIK | 0.169 | 0.007 | 9.24 | 0.002 | 9.7 | > 50 | > 50 | > 50 | 0.058 | 0.015 | > 50 | > 50 | 3.73 | 0.367 | 12.4 | 0.044 | > 50 | 0.081 | > 50 | 21.7 | IC50, pseudovirus neutralization [18]: 0.383 µg/mL; IC50, pseudovirus neutralization [19]: > 50 µg/mL; IC50, pseudovirus neutralization [20]: 12.1 µg/mL; IC50, pseudovirus neutralization [21]: > 50 µg/mL |
| 1496_C09 (PG9) (TCN-109) (antibody, V domains shown) VH: QRLVESGGGVVQPGSSLRLSCAASGFDFSRQGMHWVRQAPGQGLEWVAFIKYDGSEKYHADSVWGRLSISRDNSKDTLYLQMNSLRVEDTATYFCVREAGGPDYRNGYNYYDFYDGYYNYHYMDVWGKGTTVTVSS VL: QSALTQPASVSGSPGQSITISCNGTSNDVGGYESVSWYQQHPGKAPKVVIYDVSKRPSGVSNRFSGSKSGNTASLTISGLQAEDEGDYYCKSLTSTRRRVFGTGTKLTVLG |  |  | 1.94 |  | 0.75 |  | 1.06 |  | 0.023 | 0.022 | 0.033 | 19.3 | 0.122 | 1.25 | 17.1 | 0.076 |  | 0.007 | 22.8 | 0.259 |  |
| PGT-122 monoclonal antibody (4877_D15) (antibody, V domains shown) VH: QVHLQESGPGLVKPSETLSLTCNVSGTLVRDNYWSWIRQPLGKQPEWIGYVHDSGDTNYNPSLKSRVHLSLDKSKNLVSLRLTGVTAADSAIYYCATTKHGRRIYGVVAFKEWFTYFYMDVWGKGTSVTVSS VL: TFVSVAPGQTARITCGEESLGSRSVIWYQQRPGQAPSLIIYNNNDRPSGIPDRFSGSPGSTFGTTATLTITSVEAGDEADYYCHIWDSRRPTNWVFGEGTTLIVL |  |  |  |  |  |  |  |  |  |  |  |  |  |  |  |  |  |  |  |  | neutralization IC50 [25]: 19.1 µg/mL; neutralization IC50 [26]: 0.022 µg/mL; neutralization IC50 [27]: 0.02 µg/mL; neutralization IC50 [28]: 0.027 µg/mL; neutralization IC50 [29]: 0.018 µg/mL; neutralization IC50 [30]: 3.35 µg/mL; neutralization IC50 [31]: 0.028 µg/mL; neutralization IC50 [32]: > 50 µg/mL; neutralization IC50 [33]: > 50 µg/mL; neutralization IC50 [34]: 2 µg/mL; neutralization IC50 [35]: 32.6 µg/mL; neutralization IC50 [36]: > 50 µg/mL; neutralization IC50 [37]: > 50 µg/mL; neutralization IC50 [38]: 0.015 µg/mL |
